# Source: article PMC10935503 (Acta Pharmaceutica Sinica. B, 2023)
# Target: HIV-1 RT (Human immunodeficiency virus type 1 group M subtype B, UniProt P03366)
# Test: HIV-1 RT inhibition assay
# Type: biochemical
smiles,measurement,value
"Cc1cc(C#N)cc(C)c1Oc1nc(Nc2ccc(C#N)cc2)nc(N)c1Br [ETR, etravirine, reference compound]",IC50,232 ± 36 nM
